From patent US10647671B2, “Promysalin analogues and methods of use thereof” (Temple University—Of The Commonwealth System of Higher …, priority 2016, dated 2020)

Tested on: succinate dehydrogenase C-subunit (SdhC)
Test: Affinity/activity-based protein profiling (ABPP)
Conditions: probe 3 μM

SMILES	most prominent enriched protein (ABPP) (PAO1 and PA14, versus inactive probe)	competition of probe enrichment of SdhC (promysalin 30 μM pre-incubation)
C#CCCC1(CCNC(=O)[C@H](O)CCCCC[C@@H](CCCCCC)OC(=O)[C@@H]2CC=CN2C(=O)c2ccccc2O)N=N1 [(−)-2, (7R,13R)-14-((2-(3-(but-3-yn-1-yl)-3H-diazirin-3-yl)ethyl)amino)-13-hydroxy-14-oxotetradecan-7-yl (S)-1-(2-hydroxybenzoyl)-2,3-dihydro-1H-pyrrole-2-carboxylate]	succinate dehydrogenase C-subunit (SdhC)	–
CCCCCC[C@H](CCCCC[C@@H](O)C(N)=O)OC(=O)[C@@H]1CC=CN1C(=O)c1ccccc1O [1 (2R,8R), promysalin]	–	outcompeted
